Test system: human hepatocytes HepG2
Test: Cytotoxicity against HepG2 cells
Details: Selectivity index: EC50 (cell line)/EC50 (T. b. brucei)

Compound	HepG2 SI
O=C(Nc1ccc2sc(-c3ccc(F)c(F)c3)nc2c1)N1CCC(F)(F)C1 [Compound 9, 2-(3,4-Difluorophenyl)-5-(3,3-difluoro-N-pyrrolidylamido)benzothiazole]	>54
O=C(Nc1ccc2sc(-c3ccccc3)nc2c1)c1cccs1 [Compound 18, 2-Phenyl-5-(2-thienylamido)benzothiazole]	>57
O=C(Nc1ccc2sc(-c3ccccc3F)nc2c1)N1CCCC1 [Compound 32, 2-(2-Fluorophenyl)-5-(N-pyrrolidylamido)benzothiazole]	>51
O=C(Nc1ccc2sc(-c3ccccc3F)nc2c1)N1CCCCC1 [Compound 33, 2-(2-Fluorophenyl)-5-(N-piperidylamido)benzothiazole]	>53

— US10399966B2, “Compounds for treatment of trypanosomes and neurological pathogens and uses thereof” (The University of North Carolina at Chapel Hill, priority 2016, dated 2019)
